Laboratory results: PMC8084346, “Balancing the influenza neuraminidase and hemagglutinin responses by exchanging the vaccine virus backbone” (2021)

Tests used:
[1] = target: neuraminidase (NA) from A/Brisbane/02/2018 (N1-BR18) (influenza A virus A/Brisbane/02/2018 (H1N1))
[2] = target: neuraminidase (NA) from A/Brisbane/02/2018 (N1-BR18) (influenza A virus A/Brisbane/02/2018 (H1N1)); remark: listed apart in the source

neuraminidase (NA) from A/Brisbane/02/2018 (N1-BR18)
stoichiometry N [1]: 4 | stoichiometry N [2]: 2

Read-outs that look alike come from different tables or passages of the source.
